# From patent US20080274976A1, “USES OF NOVEL POTASSIUM CHANNEL BLOCKERS” (priority 2002, published 2008)
# Test: Injection of the peptide into mice (i.c.v., i.t., i.p.)
smiles,measurement,setting,value
CC(C)C[C@@H]1NC(=O)[C@H](CO)NC(=O)[C@@H]2CSSC[C@@H]3NC(=O)[C@@H]4C[C@@H](O)CN4C(=O)[C@H](CC(N)=O)NC(=O)[C@H](CCCNC(=N)N)NC(=O)[C@H](CCCCN)NC(=O)[C@H](CSSC[C@H](NC(=O)[C@H](CO)NC(=O)[C@@H]4C[C@@H](O)CN4C(=O)[C@@H](N)CC(C)C)C(=O)N2)NC(=O)[C@H](C)NC(=O)[C@@H]2C[C@@H](O)CN2C(=O)[C@H](C(C)C)NC(=O)[C@@H]2C[C@@H](O)CN2C(=O)[C@H](CSSC[C@@H](C(=O)N[C@H](C(N)=O)[C@@H](C)O)NC3=O)NC(=O)[C@H](CC(C)C)NC(=O)[C@H](CCCNC(=N)N)NC(=O)[C@H](CC(C)C)NC(=O)[C@H](CC(N)=O)NC1=O,observed effect after i.c.v. injection,"4 nmoles, i.c.v.",seizures were observed
same,symptomatology upon injection i.c.v.,i.c.v.,obvious symptomatology
same,effects after i.p. injection,i.p.,no visible effects
same,symptomatology upon injection i.t.,i.t.,obvious symptomatology
